Measured values from several laboratories, pooled; numbers as filed in NIAID ChemDB.

Common to all: target-level tests; agent: HIV-1; target: Protease; measure: IC50

Lines come from different laboratories, so protocols vary. ICn is the concentration giving n% inhibition. Blank or dashed fields: not listed here.

{"SMILES": "NC(=O)C[C@H](NC(=O)c1ccc2ccccc2n1)C(=O)N[C@@H](Cc1ccccc1)[C@H](O)C(O)CN1CCC[C@H]1C(F)(F)F", "result": "0.0005 µM"}
{"SMILES": "CC(=O)N1CCC[C@H]1C(=O)N[C@H](C(=O)N[C@@H](CC(C)C)[C@@H](O)CC(=O)N[C@@H](CC(C)C)C(=O)N[C@@H](Cc1ccccc1)C(N)=O)C(C)C", "result": "1.062 µM"}
{"SMILES": "COC(=O)c1cccc(-c2ccc(C[C@H](NC(=O)O[C@H]3CCOC3)[C@H](O)CN(CC(C)C)S(=O)(=O)c3ccc(OC)cc3)cc2)c1", "result": "0.0081 µM"}
{"SMILES": "Cc1c(OCc2ccccc2)ccc2c(O)c(Oc3ccc4ccc(=O)oc4c3)c(=O)oc12", "result": "7.5 µM"}
{"SMILES": "CC(C)[C@H](NC(=O)[C@@H]1CCCN1C(=O)[C@@H](O)[C@H](Cc1ccccc1)NC(=O)[C@H](CC(N)=O)NC(=O)OCc1ccccc1)C(=O)NCC1CCCCC1", "result": "<5 µM"}
{"SMILES": "COc1ccc2c(O)c(S(=O)(=O)c3ccc(Cl)cc3)c(=O)oc2c1", "result": "28 µM"}
{"SMILES": "CC[C@@H](C)[C@H](NC(=O)[C@@H]1CCCN1C(=O)[C@@H](O)[C@H](Cc1ccccc1)NC(=O)[C@H](CC(=O)N(C)C)NC(=O)CCc1ccccc1)C(=O)N[C@H](C(N)=O)C(C)C", "result": ">5 µM"}
{"SMILES": "CC(C)CN(C[C@@H](O)[C@H](Cc1ccc(-c2ccc(N3CCOCC3)cc2)cc1)NC(=O)O[C@H]1CCOC1)S(=O)(=O)c1ccc(N)cc1", "result": "0.0046 µM"}
{"SMILES": "Cc1cc(N)cc(C)c1OCC(=O)N[C@@H](Cc1ccccc1)[C@@H](O)C[C@H](Cc1ccccc1)NC(=O)[C@H](C(C)C)N1CCCNC1=O", "result": "<0.0005 µM"}
{"SMILES": "Cc1c(O)cccc1C(=O)N[C@@H](Cc1ccccc1)[C@H](O)CCN(C)[C@@H](Cc1ccccc1)C(=O)NC(C)(C)C", "result": "26.2 µM"}
{"SMILES": "CC(C)[C@H](NC(=O)[C@@H](NC(=O)c1cc2ccccc2c(Cc2c(O)c(C(=O)N[C@H](C(=O)N[C@H](C(=O)O)C(C)C)C(C)C)cc3ccccc23)c1O)C(C)C)C(=O)O", "result": "2.8 µM"}
{"SMILES": "CC(C)(C)NS(=O)(=O)N(Cc1ccccc1)C[C@@H](O)[C@H](Cc1ccccc1)NC(=O)OCc1ccccc1", "result": "~10 µM"}
{"SMILES": "NC(=O)C[C@H](NC(=O)c1ccc2ccccc2n1)C(=O)N[C@@H](Cc1ccccc1)[C@H](O)CN1CCC[C@H]1C(F)(F)F", "result": "0.00005 µM"}
{"SMILES": "N[C@H](Cc1ccc(O)c(-c2cc(C[C@@H](N)C(=O)O)ccc2O)c1)C(=O)O", "result": "240 µM"}
{"SMILES": "Cc1c(O)cccc1C(=O)N[C@@H](Cc1ccccc1)[C@H](O)CCN[C@H](C(=O)NC(C)(C)C)c1ccccc1", "result": "1.8 µM"}
{"SMILES": "CC(=O)N[C@@H](Cc1ccc(O)cc1)C(=O)N[C@H](C(=O)N[C@@H](CC(C)C)[C@@H](O)CC(=O)N[C@@H](CC(C)C)C(=O)N[C@@H](Cc1ccccc1)C(N)=O)C(C)C", "result": "0.043 µM"}
{"SMILES": "CC(C)[C@H](NC(=O)[C@H](Cc1cccc2ccccc12)CS(=O)(=O)C(C)(C)C)C(=O)N[C@@H](Cc1ccccc1)[C@@H](O)CN1C[C@@H]2CCCC[C@@H]2C[C@H]1C(F)(F)F", "result": ">5 µM"}
{"SMILES": "Cc1c(O)cccc1C(=O)N[C@@H](Cc1ccccc1)[C@H](O)CCN[C@H](C(=O)NC(C)(C)C)C(C)(C)C", "result": "6 µM"}
{"SMILES": "COc1ccc(S(=O)(=O)N(CC(C)C)C[C@@H](O)[C@H](Cc2ccc(-c3ccccc3F)cc2)NC(=O)O[C@H]2CCOC2)cc1", "result": "0.0044 µM"}
{"SMILES": "CC(C)[C@H](NC(=O)[C@H](Cc1ccc2ccccc2c1)CS(=O)(=O)C(C)(C)C)C(=O)N[C@H](Cc1ccccc1)P(N)(=O)[C@@H](Cc1ccccc1)NC(=O)[C@@H](NC(=O)[C@H](Cc1cccc2ccccc12)CS(=O)(=O)C(C)(C)C)C(C)C", "result": "0.25 µM"}
{"SMILES": "C[C@H](C(=O)NC(C)(C)C)n1nnnc1[C@H](O)[C@H](Cc1ccccc1)NC(=O)[C@H](CC(N)=O)NC(=O)c1ccc2ccccc2n1", "result": "51 ± 3 µM"}
{"SMILES": "CC(C)[C@@H](C(=O)N[C@@H](Cc1ccccc1)C[C@H](O)[C@H](Cc1ccccc1)NC(=O)COc1ccccc1)N1CCCNC1=O", "result": "<0.0005 µM"}
{"SMILES": "CC(C)[C@H](NC(=O)[C@H](Cc1ccc2ccccc2c1)CS(=O)(=O)C(C)(C)C)C(=O)N[C@@H](Cc1ccccc1)P(=O)(O)[C@H](Cc1ccccc1)NC(=O)[C@@H](NC(=O)[C@H](Cc1cccc2ccccc12)CS(=O)(=O)C(C)(C)C)C(C)C", "result": "0.0005 µM"}
{"SMILES": "CN(C)S(=O)(=O)N(Cc1ccc(F)cc1)C[C@@H](O)[C@H](Cc1ccccc1)NC(=O)OCc1ccccc1", "result": "~10 µM"}
{"SMILES": "O=C(N[C@@H](CCc1ccccc1)[C@@H](O)C[C@]1(Cc2ccccc2)NC=C([C@H]2c3ccccc3C[C@H]2O)C1=O)O[C@H]1CCOC1", "result": "0.002 µM"}
{"SMILES": "CC(C)[C@H](NC(=O)[C@H](Cc1ccc2ccccc2c1)CS(=O)(=O)C(C)(C)C)C(=O)NCP(=O)(O)CNC(=O)[C@@H](NC(=O)[C@H](Cc1cccc2ccccc12)CS(=O)(=O)C(C)(C)C)C(C)C", "result": "0.0011 µM"}
{"SMILES": "Cc1cc(C)cc(OCC(=O)N[C@@H](Cc2ccccc2)[C@@H](O)C[C@H](Cc2ccccc2)NC(=O)[C@H](C(C)C)N2CCCNC2=O)c1", "result": ">0.0005 µM"}
{"SMILES": "C[C@@H](C(=O)NC(C)(C)C)n1nnnc1[C@H](O)[C@H](Cc1ccccc1)NC(=O)[C@H](CC(N)=O)NC(=O)c1ccc2ccccc2n1", "result": "60 ± 10 µM"}
{"SMILES": "CN(C)CCNC(=O)C(NC(=O)Cc1ccccc1)[C@@H]1N[C@@H](C(=O)NCCNC(=O)[C@@H]2N[C@@H](C(NC(=O)Cc3ccccc3)C(=O)NCc3ccccc3)SC2(C)C)C(C)(C)S1", "result": "0.0085 µM"}
{"SMILES": "CCc1c(C)c2c(c(C)c1C1=NC(=O)C(c3cc(-c4c(C)c5c(c(C)c4CC)[C@](C)(O)C[C@@H]5C)[nH]c3O)=C1)[C@H](C)C[C@]2(C)O", "result": ">10 µM"}
{"SMILES": "CC(C)CCCC(C)[C@H]1CCC2C3CC[C@H]4C[C@@H](CCC=C(c5cc(Cl)c(OCc6ccc(B(O)O)cc6)c(C(=O)O)c5)c5cc(Cl)c(OCc6ccc(B(O)O)cc6)c(C(=O)O)c5)CC[C@]4(C)C3CC[C@@]21C", "result": "0.0011 µM"}
{"SMILES": "CC(C)(C)OC(=O)CNC(=O)C(NC(=O)Cc1ccccc1)[C@@H]1N[C@@H](C(=O)NCCNC(=O)[C@@H]2N[C@@H](C(NC(=O)Cc3ccccc3)C(=O)NCc3ccccc3)SC2(C)C)C(C)(C)S1", "result": "0.0019 µM"}
{"SMILES": "Cc1c(O)cccc1C(=O)N[C@@H](Cc1ccc(-c2cccs2)cc1)[C@H](O)CN1C[C@H]2CCCC[C@H]2C[C@H]1C(=O)NC(C)(C)C", "result": "0.006 µM"}
{"SMILES": "O=c1oc2cc(OCc3ccccc3)ccc2c(O)c1-c1ccccc1", "result": "7 µM"}
{"SMILES": "CC(C)CN(C[C@@H](O)[C@H](Cc1ccc(-c2cccc(C#N)c2)cc1)NC(=O)O[C@H]1CCOC1)S(=O)(=O)c1ccc(N)cc1", "result": "0.00249 µM"}
{"SMILES": "CC(C)[C@H](NC(=O)[C@H](Cc1cccc2ccccc12)CS(=O)(=O)C(C)(C)C)C(=O)N[C@@H](Cc1ccccc1)[C@@H](O)CN1CCc2ccccc2[C@H]1C(F)(F)F", "result": "0.01 µM"}
{"SMILES": "CC(C)CN(C[C@@H](O)[C@H](Cc1ccccc1)NC(=O)OCc1ccccc1)S(=O)(=O)NCCOCc1ccccc1", "result": ">10 µM"}
{"SMILES": "COc1ccnc2[nH]cc(C(=O)C(=O)N3CCN(C(=O)c4ccccc4)C[C@H]3C)c12", "result": ">20 µM"}
{"SMILES": "CC(C)Oc1cccc(OCC(=O)N[C@@H](CS(C)(=O)=O)C(=O)N[C@@H](Cc2ccccc2)[C@H](O)C(=O)N2CSC(C)(C)[C@H]2C(=O)NC(C)(C)C)c1", "result": "<0.05 µM"}
{"SMILES": "CC(C)CN(C[C@@H](O)[C@H](Cc1ccccc1)NC(=O)OCc1ccccc1)S(=O)(=O)NC(C)C", "result": "1 µM"}
{"SMILES": "CC[C@@H](C)[C@H](NC(=O)[C@@H]1CCCN1C(=O)[C@@H](O)[C@H](Cc1ccccc1)NC(=O)[C@H](CCC(N)=O)NC(=O)CCc1ccccc1)C(=O)N[C@H](C(N)=O)C(C)C", "result": "<5 µM"}
{"SMILES": "CC(=O)N(CC[C@@H](O)[C@H](Cc1ccccc1)NC(=O)c1cccc(O)c1C)[C@@H](Cc1ccccc1)C(=O)NCc1ccc(C)cc1", "result": "1.6 µM"}
{"SMILES": "Cc1ccccc1OCC(=O)N[C@@H](Cc1ccccc1)[C@@H](O)C[C@H](Cc1ccccc1)NC(=O)[C@H](C(C)C)N1CCCNC1=O", "result": "<0.0005 µM"}
{"SMILES": "CC[C@@H](C)[C@H](NC(=O)[C@@H]1CCCN1C(=O)[C@@H](O)[C@H](Cc1ccccc1)NC(=O)[C@H](CC(N)=O)NC(=O)c1ccc2ccccc2n1)C(=O)N[C@H](C(N)=O)C(C)C", "result": "<5 µM"}
{"SMILES": "COc1ccc(S(=O)(=O)N(CC(C)C)C[C@@H](O)[C@H](Cc2ccc(-c3cccc(F)c3)cc2)NC(=O)O[C@H]2CCOC2)cc1", "result": "0.0065 µM"}
{"SMILES": "CCN(CC[C@@H](O)[C@H](Cc1ccccc1)NC(=O)c1cccc(O)c1C)S(=O)(=O)c1ccc(OC)cc1", "result": "0.9 µM"}
{"SMILES": "CC(C)[C@H](NC(=O)[C@H](Cc1ccc2ccccc2c1)CS(=O)(=O)C(C)(C)C)C(=O)N[C@H](Cc1ccccc1)P(=O)(O)[C@@H](Cc1ccccc1)NC(=O)[C@@H](NC(=O)[C@H](Cc1cccc2ccccc12)CS(=O)(=O)C(C)(C)C)C(C)C", "result": "0.085 µM"}
{"SMILES": "CC(=O)N[C@@H](Cc1cccc2ccccc12)C(=O)N[C@H](C(=O)N[C@@H](CC(C)C)[C@@H](O)CC(=O)N[C@@H](CC(C)C)C(=O)N[C@@H](Cc1ccccc1)C(N)=O)C(C)C", "result": "0.006 µM"}
{"SMILES": "CC(C)(C)NC(=O)[C@H]1N(C(=O)[C@@H](O)[C@H](Cc2ccccc2)NC(=O)[C@H](CC(N)=O)NC(=O)C/C=C/c2ccccc2)CSC1(C)C", "result": "<0.05 µM"}
{"SMILES": "CC(=O)N(CC[C@@H](O)[C@H](Cc1ccc2ccccc2c1)NC(=O)c1cccc(O)c1C)[C@@H](Cc1ccccc1)C(=O)NC(C)(C)C", "result": "0.041 µM"}
{"SMILES": "CC(C)(C)NOC[C@@H]1CN(Cc2cccnc2)CCN1CS(=O)C[C@@H](CCc1ccccc1)C(=O)N[C@H]1c2ccccc2C[C@H]1O", "result": "100 µM"}
{"SMILES": "CC[C@@H](C)[C@H](NC(=O)[C@@H]1CCCN1C(=O)[C@@H](O)[C@H](CC1CCCCC1)NC(=O)[C@H](CC(N)=O)NC(=O)[C@@H]1Cc2ccccc2CN1)C(=O)N[C@H](C(N)=O)C(C)C", "result": "<5 µM"}
{"SMILES": "C=CC(C)(C)c1[nH]c2ccccc2c1C1=C(O)C(=O)C(c2c[nH]c3c(CC=C(C)C)cccc23)=C(O)C1=O", "strain or isolate": "WT", "result": "~57 µM"}
{"SMILES": "COc1ccc(Cc2c(O)c3ccc(OC)cc3oc2=O)cc1", "result": "3 µM"}
{"SMILES": "CC(C)[C@H](NC(=O)[C@H](Cc1cccc2ccccc12)CS(=O)(=O)C(C)(C)C)C(=O)N[C@@H](Cc1ccccc1)[C@@H](O)CN1CC[C@H]2CCCC[C@H]2[C@H]1C(F)(F)F", "result": "0.05 µM"}
{"SMILES": "COc1ccc(C[C@H](NC(C)=O)C(=O)N[C@H](C(=O)N[C@@H](CC(C)C)[C@@H](O)CC(=O)N[C@@H](CC(C)C)C(=O)N[C@@H](Cc2ccccc2)C(N)=O)C(C)C)cc1", "result": "0.016 µM"}
{"SMILES": "COc1ccc2c(O)c(Cc3ccccc3)c(=O)oc2c1", "result": "2.4 µM"}

4 of the rows above, restated:

SMILES	strain or isolate	result
CCc1c(C)c2c(c(C)c1C1=NC(=O)C(c3cc(-c4c(C)c5c(c(C)c4CC)[C@](C)(O)C[C@@H]5C)[nH]c3O)=C1)[C@H](C)C[C@]2(C)O		>10 µM
O=C(N[C@@H](CCc1ccccc1)[C@@H](O)C[C@]1(Cc2ccccc2)NC=C([C@H]2c3ccccc3C[C@H]2O)C1=O)O[C@H]1CCOC1		0.002 µM
CC(C)[C@H](NC(=O)[C@H](Cc1ccc2ccccc2c1)CS(=O)(=O)C(C)(C)C)C(=O)N[C@H](Cc1ccccc1)P(=O)(O)[C@@H](Cc1ccccc1)NC(=O)[C@@H](NC(=O)[C@H](Cc1cccc2ccccc12)CS(=O)(=O)C(C)(C)C)C(C)C		0.085 µM
COc1ccnc2[nH]cc(C(=O)C(=O)N3CCN(C(=O)c4ccccc4)C[C@H]3C)c12		>20 µM